Laboratory results from PMC7932532, “Construction, characterization, and immunization of nanoparticles that display a diverse array of influenza HA trimers” (2021).

How the values were obtained:
[1] = target: SpyTagged HA ectodomain trimer of A/Aichi/02/1968 (H3) with Y98F (influenza A virus A/Aichi/02/1968 (H3) | bacteriophage T4); test: SEC
[2] = target: SpyTagged HA ectodomain trimer of A/California/04/2009 (H1) with Y98F (influenza A virus A/California/04/2009 (H1) | bacteriophage T4); test: SEC
[3] = target: SpyTagged HA ectodomain trimer of A/Japan/305/1957 (H2) with Y98F (influenza A virus A/Japan/305/1957 (H2) | bacteriophage T4); test: SEC
[4] = target: SpyTagged HA ectodomain trimer of A/Jiangxi-Donghu/346/2013 (H10) with Y98F (influenza A virus A/Jiangxi-Donghu/346/2013 (H10) | bacteriophage T4); test: SEC
[5] = target: SpyTagged HA ectodomain trimer of A/Shanghai/1/2013 (H7) with Y98F (influenza A virus A/Shanghai/1/2013 (H7) | bacteriophage T4)
[6] = target: SpyTagged HA ectodomain trimer of A/Vietnam/1203/2004 (H5) with Y98F (influenza A virus A/Vietnam/1203/2004 (H5) | bacteriophage T4)
[7] = target: SpyTagged HA ectodomain trimer of A/swine/HuBei/06/2009 (H4) with Y98F (influenza A virus A/swine/HuBei/06/2009 (H4) | bacteriophage T4); test: SEC

“SpyTagged HA ectodomain trimer of A/Aichi/02/1968 (H3) with Y98F (domain or fragment)” was tested. Which stoichiometry N [1] did it give?
Its stoichiometry N is 3.

Which stoichiometry N [2] does the source give for “SpyTagged HA ectodomain trimer of A/California/04/2009 (H1) with Y98F (domain or fragment)” here?
The stoichiometry N was 3.

“SpyTagged HA ectodomain trimer of A/Japan/305/1957 (H2) with Y98F (domain or fragment)” was tested. Which stoichiometry N [3] did it give?
The stoichiometry N was 3.

With “SpyTagged HA ectodomain trimer of A/Jiangxi-Donghu/346/2013 (H10) with Y98F (domain or fragment)” as the substance, how does the stoichiometry N [4] read?
Its stoichiometry N is 3.

Which stoichiometry N [5] does the source give for “SpyTagged HA ectodomain trimer of A/Shanghai/1/2013 (H7) with Y98F” here?
The stoichiometry N was 3.

Which stoichiometry N [6] does the source give for “SpyTagged HA ectodomain trimer of A/Vietnam/1203/2004 (H5) with Y98F” here?
The stoichiometry N was 3.

With “SpyTagged HA ectodomain trimer of A/swine/HuBei/06/2009 (H4) with Y98F (domain or fragment)” as the substance, how does the stoichiometry N [7] read?
The stoichiometry N was 3.
